Compound potency records, mixed from different reports. Data source: NIAID ChemDB in PubChem.

Common to all: growth or infection tests; organism: Poliovirus

Conditions beyond the fields shown may differ between rows.

smiles | endpoint | cell line | strain or isolate | value
O=C1/C(=C/c2ccc(Cl)cc2)COc2ccccc21 | EC50 | HeLa | TYPE 2 | >6.25 µM
CC(=O)O[C@H]1CC2=CCC3C(CCC4(C)C(C(CCC=C(C)C)COS(=O)(=O)O)CCC34)C2(C)C[C@@H]1OS(=O)(=O)O | EC50 | VERO | TYPE 3 | 45.9 µg/mL
CCOC(=O)c1ccc(OCCCCc2cc(C=O)n(C)c2)cc1 | EC50 | VERO | Type 1/Sabin strain | 5 µM
Cc1ccc(C(=O)CCCCCCOc2ccc(C3=NCC(C)O3)cc2)s1 | EC50 | VERO | TYPE 2 | 5.41 µM
CCn1c(-c2cccc(F)c2)c(C)c(=O)c2cc(C(C)C)ccc21 | EC50 | HeLa S3 | TYPE 1/SABIN | 0.73 µg/mL
CSc1nsc(-c2cc[n+](C)cc2)c1C#N | EC50 | HEP-2 | Type 1/Brunhilde | >1000 µM
Clc1ccc2c(c1)C=C(c1ccccc1)CO2 | EC50 | HEP-2 | II (TYPE 2) | <10 µM
CSc1nsc(-c2ccc(OCCCOc3ccccc3)cc2)c1C#N | EC50 | HEP-2/L-929/VERO | TYPE 1 | 5 µM
Cc1cn(C(CF)CCCO)c(=O)[nH]c1=O | EC50 | HeLa | TYPE 1 | >400 µg/mL
CSc1nsc(-c2ccc(OCCCCOc3ccc([N+](=O)[O-])cc3)cc2)c1C#N | EC50 | HEP-2/L-929/VERO | TYPE 1 | >0.5 µM
Nc1nc(F)nc2c1ncn2[C@@H]1C=C(CO)[C@@H](O)[C@H]1O | EC50 | HeLa | TYPE 1 | ≥40 µg/mL
CC=NC(=N)c1nc(-c2cccc(C)c2)n(C/C=C/c2ccccc2)n1 | EC50 | HeLa | TYPE 1 | >10 µg/mL
CCOC(=O)c1ccc(OCCCCCCCc2cc(C)no2)cc1 | EC50 | HELA-OHIO | TYPE 2 | 1.2 µg/mL
CC=NC(=N)c1nc(-c2ccc(OC)cc2)n(COCCO)n1 | EC50 | HeLa | TYPE 1 | >200 µg/mL
CC(O)c1ccc2c(c1)S(=O)c1ccccc1O2 | EC50 | BSC-1 | TYPE 3 | >10 µg/mL
NC1CSCON2CCc3c([nH]c4ccccc34)[C@H]12 | EC50 | HeLa | TYPE 1 | 0.7 µg/mL
CO[C@H](CO)[C@@H](O)CCn1cc(C)c(=O)[nH]c1=O | EC50 | HeLa | TYPE 1 | >400 µg/mL
Nc1ncnc2c1ncn2[C@@H]1C[C@H](CO)[C@@H](O)[C@H]1O | EC50 | HeLa | TYPE 1 | >4 µg/mL
CSc1nsc(-c2ccc(OCCc3ccccc3)cc2)c1C#N | EC50 | HEP-2/L-929/VERO | TYPE 1 | 0.25 µM
CO[C@H](CO)[C@@H](O)CCn1cnc2c(=O)[nH]c(N)nc21 | EC50 | HeLa | TYPE 1 | >400 µg/mL
C=C(N=CC)c1nc(-c2ccc(C)cc2)n([C@@H]2O[C@H](CO)[C@@H](O)[C@H]2O)n1 | EC50 | HeLa | TYPE 1 | >40 µg/mL
CC1(c2ccc(Cl)c(Cl)c2)NC(=O)NC1=O | EC50 | HeLa | - | 20 µg/mL
CON1CCc2c([nH]c3ccccc23)[C@@H]1[C@@H](N)CSC | EC50 | HeLa | TYPE 1 | >10 µg/mL
OC[C@H]1O[C@@H](n2c(CCc3ccccn3)nc3cc(Cl)c(Cl)cc32)[C@H](O)[C@@H]1O | EC50 | HEL | TYPE 1 | >100 µg/mL
Clc1ccc(C2=Cc3ccccc3OC2)cc1 | EC50 | HEP-2 | SABIN (TYPE 2) | >10 µM
OCCOCn1c(CCc2ccccn2)nc2cc(Cl)c(Cl)cc21 | EC50 | HEL | TYPE 1 | >100 µg/mL
COc1cc(C(=O)Oc2c(-c3ccc(Cl)cc3)oc3ccccc3c2=O)cc(OC)c1O | EC50 | HeLa | TYPE 2 | >1.56 µM
Cc1nsc(C)c1C#N | EC50 | HEP-2 | Type 1/Brunhilde | >1000 µM
CCC(=O)C(CCCCCCOc1ccc(OC)cc1Cl)C(=O)CC | EC50 | HeLa | MEF (TYPE 2) | 0.07–0.14 µM
CC(=O)OCCOCN1C(N)=CC(N)=NS1(=O)=O | EC50 | HeLa | TYPE 1 | >400 µg/mL
Cc1cn(CC[C@H](O)CCO)c(=O)[nH]c1=O | EC50 | HeLa | TYPE 1 | >400 µg/mL
CC(O)c1ccc2c(c1)Sc1cc(C(C)O)ccc1O2 | EC50 | BSC-1 | TYPE 3 | >10 µg/mL
CSCC1=C[C@@H](n2cnc3c(N)ncnc32)[C@H](O)[C@@H]1O | EC50 | HeLa | TYPE 1 | >200 µg/mL
CSc1nsc(-c2ccc(OCc3ccccc3)cc2)c1C#N | EC50 | HEP-2/L-929/VERO | TYPE 1 | >50 µM
Clc1ccc(C2CCc3ccccc3O2)c(Cl)c1 | EC50 | HEP-2 | SABIN (TYPE 2) | >10 µM
OC[C@H]1O[C@@H](n2c(CCc3ccccn3)nc3ccccc32)[C@H](O)[C@@H]1O | EC50 | HEL | TYPE 1 | >100 µg/mL
CSc1nsc(-c2ccccc2Cl)c1C#N | EC50 | HEP-2 | Type 1/Brunhilde | >5 µM
Cc1ccc(C(=O)CCCCOc2ccc(C3=NC(C)CO3)cc2)s1 | EC50 | VERO | TYPE 3 | 0.67 µM
Cc1c(-c2ccccc2)n(-c2ccccc2)c2ccc(C(C)C)cc2c1=O | EC50 | HeLa S3 | TYPE 1/SABIN | 5 µg/mL
Nc1ccn([C@@H]2OCC(CO)=C2F)c(=O)n1 | EC50 | - | - | >100 µg/mL
COc1ccc(-c2snc(SC)c2C#N)cc1 | EC50 | HEP-2 | TYPE 1 | 0.6 µM
Cc1ccc(C(=O)CCCCCCOc2ccc(C3=NCCO3)cc2Cl)s1 | EC50 | VERO | TYPE 1 | 24.63 µM
CCOC(=O)c1ccc(OCCOc2ccc(-c3snc(SC)c3C#N)cc2)cc1 | EC50 | HEP-2/L-929/VERO | TYPE 1 | >2 µM
COc1cc(/C=C/C(=O)Oc2c(-c3ccc(Cl)cc3)oc3ccccc3c2=O)ccc1OC(C)=O | EC50 | HeLa | TYPE 2 | >1.56 µM
CSc1nsc(-c2cccnc2)c1C#N | EC50 | HEP-2 | Type 1/Brunhilde | 0.75 µM
Cc1cc(CCCCCCCOc2ccc(C3=NCCO3)cc2)on1 | EC50 | VERO | TYPE 1 | 2.36 µM
CC(=O)OCCOCN1C(=O)C=CN(COCCO)S1(=O)=O | EC50 | HeLa | TYPE 1 | >400 µg/mL
COc1cc2oc(-c3ccccc3)cc(=O)c2c(OC)c1OC | EC50 | VERO | P1 TYPE (SABIN) | 32 µg/mL
CO[C@H](CO)[C@@H](O)CCn1cnc2c(N)ncnc21 | EC50 | HeLa | TYPE 1 | >400 µg/mL
CSc1nsc(-c2ccc(OS(=O)(=O)c3ccc(C)cc3)cc2)c1C#N | EC50 | HEP-2 | Type 1/Brunhilde | >25 µM
CC(=O)Oc1ccc(/C=C/C(=O)Oc2c(-c3ccc(Cl)cc3)oc3ccccc3c2=O)cc1OC(C)=O | EC50 | HeLa | TYPE 2 | >0.39 µM
Nc1ncnc2c1ncn2CCCC(O)CF | EC50 | HeLa | TYPE 1 | >400 µg/mL
O=C1/C(=C/c2ccc(O)cc2)COc2ccccc21 | EC50 | HeLa | TYPE 2 | >6.25 µM
CC(O)c1ccc2c(c1)Cc1ccccc1O2 | EC50 | BSC-1 | TYPE 3 | 0.4–2 µg/mL
CC(=O)OCCOCN1C=CC(=O)N(COCCO)S1(=O)=O | EC50 | HeLa | TYPE 1 | >400 µg/mL
COc1cc(OC)c(OC)cc1/C=N/N=C(/N)NO.Cc1ccc(S(=O)(=O)O)cc1 | EC50 | VERO | Brunhilde (type 1) | >50 µM
O=C(/C=C/c1ccc(O)c(O)c1)Oc1c(-c2ccc(Cl)cc2)oc2ccccc2c1=O | EC50 | HeLa | TYPE 2 | >6.25 µM
Cc1cc(CCCCCOc2cc(Cl)c(-c3nnco3)c(Cl)c2)on1 | MIC | - | TYPE 2 | 2.24 µg/mL
CNC(=O)OC(C)c1ccc2c(c1)Sc1ccccc1O2 | EC50 | BSC-1 | TYPE 3 | >10 µg/mL
CSc1nsc(-c2ccc(OCCCOc3ccc(C#N)cc3)cc2)c1C#N | EC50 | HEP-2/L-929/VERO | TYPE 1 | >2 µM
COc1ccc(Cc2coc3ccccc3c2=O)cc1 | EC50 | HeLa | TYPE 2 | >25 µM
Clc1ccc2c(c1)CC(c1ccccc1)CO2 | EC50 | HEP-2 | IA (TYPE 2) | <10 µM
C=C(N=CC)c1nc(-c2cccc(C)c2)n(C2O[C@H](CO)[C@@H](O)[C@H](O)[C@H]2O)n1 | EC50 | HeLa | TYPE 1 | >400 µg/mL
CC(=O)c1ccc2c(c1)Sc1ccccc1S2 | EC50 | BSC-1 | TYPE 3 | 0.4–2 µg/mL
CN=C(c1ccccc1)c1ccc2nc(N)n(S(=O)(=O)C(C)C)c2c1 | EC50 | BSC-1 | Type 1/Mahoney | 0.02 µg/mL
CSc1nsc(SC)c1C#N | EC50 | HEP-2 | Type 1/Brunhilde | >12 µM
C=C(N=CC)c1nc(-c2ccc(OC)cc2)n(C2O[C@H](CO)[C@@H](O)[C@H](O)[C@H]2O)n1 | EC50 | HeLa | TYPE 1 | >200 µg/mL
CS(=O)(=O)c1ccc(Oc2ccc(C(=O)c3ccccc3)cc2)nc1 | EC50 | HeLa | TYPE 2 | >10 µg/mL
C=C(N=CC)c1nc(-c2cccc(C)c2)n([C@@H]2O[C@H](CO)[C@@H](O)[C@H]2O)n1 | EC50 | HeLa | TYPE 1 | >200 µg/mL
Cc1ccnc(SCc2cccc(CSc3nc4ccccc4s3)n2)n1 | MIC | - | - | 11 µM
Nc1ncnc2c1ncn2C1CC(CO)[C@@H](O)[C@H]1O | EC50 | HeLa | TYPE 1 | 8 µg/mL
COCC1=C[C@@H](n2cnc3c(N)ncnc32)[C@H](O)[C@@H]1O | EC50 | HeLa | TYPE 1 | >200 µg/mL
c1ccc(-c2cc(SSc3cc(-c4ccccc4)sn3)ns2)cc1 | EC50 | HEP-2 | Type 1/Brunhilde | 0.35 µM
CC(C)n1c(N)nc2ccc(/C(=N/O)c3ccccc3)cc21 | EC50 | BSC-1 | Type 1/Mahoney | 0.09 µg/mL
CSc1nsc(-c2ccc[n+](C)c2)c1C#N | EC50 | HEP-2 | Type 1/Brunhilde | 250 µM
O=C1c2cc(Cl)ccc2OCC1Cc1ccc(Cl)cc1 | EC50 | HeLa | TYPE 2 | 18.56 µM
CSc1nsc(-c2ccc(OCCOc3ccc([N+](=O)[O-])cc3)cc2)c1C#N | EC50 | HEP-2/L-929/VERO | TYPE 1 | >1 µM
Cc1ccc(C(=O)CCCCOc2ccc(C3=NCC(C)O3)cc2Cl)s1 | EC50 | VERO | TYPE 1 | 16.1 µM
Nc1ncnc2c1ccn2[C@@H]1C[C@H](O)[C@@H](O)[C@H]1O | EC50 | HeLa | TYPE 1 | 400 µg/mL
Clc1ccc(-c2cc(SSc3cc(-c4ccc(Cl)cc4)sn3)ns2)cc1 | EC50 | HEP-2 | Type 1/Brunhilde | 1.1 µM
CSc1nsc(-c2ccc(OCCCc3ccccc3)cc2)c1C#N | EC50 | HEP-2/L-929/VERO | TYPE 1 | 0.12 µM
C=C(N=CC)c1nc(-c2cccc(OC)c2)n(C2O[C@H](CO)[C@@H](O)[C@H](O)[C@H]2O)n1 | EC50 | HeLa | TYPE 1 | >400 µg/mL
Clc1ccc(C2COc3ccccc3C2)cc1 | EC50 | HEP-2 | IB (TYPE 2) | >10 µM
COc1cc(/C=C/C(=O)Oc2c(-c3ccc(Cl)c(Cl)c3)oc3ccccc3c2=O)ccc1O | EC50 | HeLa | TYPE 2 | >1.56 µM
CSc1nsc(-c2ccc(OCc3ccccc3)cc2)c1C#N | EC50 | HEP-2 | TYPE 1 | >50 µM
COc1cc(OC)c(/C=N/N=C(/N)NO)c(OC)c1.Cc1ccc(S(=O)(=O)O)cc1 | EC50 | VERO | Brunhilde (type 1) | >50 µM
CCOC(=O)c1ccc(OCCCCC(=O)c2ccc(C)s2)cc1 | EC50 | VERO | TYPE 3 | 1.33 µM
N#Cc1cc([N+](=O)[O-])ccc1Oc1ccc(Cl)c(Cl)c1 | EC50 | HeLa | TYPE 2 | ≤0.6 µg/mL
CCC1COC(c2ccc(OCCCCCCC(=O)c3ccc(C)s3)cc2)=N1 | EC50 | VERO | TYPE 2 | >26.05 µM
OC[C@H]1O[C@@H](n2c(SCc3ccccn3)nc3cc(Cl)c(Cl)cc32)[C@H](O)[C@@H]1O | EC50 | HEL | TYPE 1 | >50 µg/mL
CCOc1cc(O)c(C(=O)/C=C/c2ccc(OC)cc2)c(OC)c1 | EC50 | HeLa | TYPE 1 | >3 µg/mL
O=C(Oc1c(-c2ccc(Cl)cc2)oc2ccccc2c1=O)c1cc(O)c(O)c(O)c1 | EC50 | HeLa | TYPE 2 | >25 µM
CCOC(=O)C1=CN(COCCO)S(=O)(=O)NC1=O | EC50 | HeLa | TYPE 1 | >400 µg/mL
COc1ccc(Cc2coc3cc(OC)cc(OC)c3c2=O)cc1 | EC50 | HeLa | TYPE 2 | >6.25 µM
CC=NC(=N)c1nc(-c2ccc(C)cc2)n(C/C=C/c2ccccc2)n1 | EC50 | HeLa | TYPE 1 | >10 µg/mL
O=C1C=CN(COCCO)S(=O)(=O)N1COCCO | EC50 | HeLa | TYPE 1 | >400 µg/mL
CSc1nsc(-c2ccc(O)cc2)c1C#N | EC50 | HEP-2 | TYPE 1 | 0.4 µM
NC1CCCON2CCc3c([nH]c4ccccc34)[C@H]12 | EC50 | HeLa | TYPE 1 | 7 µg/mL

For reference, 8 entries again:

smiles | endpoint | cell line | strain or isolate | value
CCOC(=O)c1ccc(OCCCCc2cc(C=O)n(C)c2)cc1 | EC50 | VERO | Type 1/Sabin strain | 5 µM
Cc1ccc(C(=O)CCCCOc2ccc(C3=NC(C)CO3)cc2)s1 | EC50 | VERO | TYPE 3 | 0.67 µM
CSc1nsc(-c2cccnc2)c1C#N | EC50 | HEP-2 | Type 1/Brunhilde | 0.75 µM
COc1cc(/C=C/C(=O)Oc2c(-c3ccc(Cl)cc3)oc3ccccc3c2=O)ccc1OC(C)=O | EC50 | HeLa | TYPE 2 | >1.56 µM
CCOC(=O)c1ccc(OCCCCC(=O)c2ccc(C)s2)cc1 | EC50 | VERO | TYPE 3 | 1.33 µM
CC(O)c1ccc2c(c1)Cc1ccccc1O2 | EC50 | BSC-1 | TYPE 3 | 0.4–2 µg/mL
CCn1c(-c2cccc(F)c2)c(C)c(=O)c2cc(C(C)C)ccc21 | EC50 | HeLa S3 | TYPE 1/SABIN | 0.73 µg/mL
COc1ccc(-c2snc(SC)c2C#N)cc1 | EC50 | HEP-2 | TYPE 1 | 0.6 µM

An empty or dashed field is not shown. ECn: concentration that inhibits the pathogen or its effect by n%. Two numbers with a dash give a range or band.